{
  "source": "patent US20030032582A1",
  "test_in_all_cases": "cell-based or functional assay",
  "key": {"TCR Vβ2 (human)": {"molecular_target": "TCR Vβ2 (human)"}, "TCR Vβ5 (human)": {"molecular_target": "TCR Vβ5 (human)"}, "TCR Vβ8 (human)": {"molecular_target": "TCR Vβ8 (human)"}},
  "data": [
    {"substance": "H-TSST(88-194) (ligand)", "values": [
      {"measurement": "CD3^+ Blasts Binding Anti-Vβ (%)", "setting": "TCR Vβ2 (human)", "value": 29, "unit": "%"},
      {"measurement": "CD3^+ Blasts Binding Anti-Vβ, fold difference versus unstimulated controls", "setting": "TCR Vβ2 (human)", "value": 3, "unit": "fold"},
      {"measurement": "CD3^+ Lymphocytes Binding Anti-Vβ (%)", "setting": "TCR Vβ2 (human)", "value": 5.8, "unit": "%"},
      {"measurement": "CD3^+ Lymphocytes Binding Anti-Vβ, fold difference versus unstimulated controls", "setting": "TCR Vβ2 (human)", "value": 0.6, "unit": "fold"},
      {"measurement": "CD3^+ Blasts Binding Anti-Vβ (%)", "setting": "TCR Vβ5 (human)", "value": 5.4, "unit": "%"},
      {"measurement": "CD3^+ Blasts Binding Anti-Vβ, fold difference versus unstimulated controls", "setting": "TCR Vβ5 (human)", "value": 2.4, "unit": "fold"},
      {"measurement": "CD3^+ Lymphocytes Binding Anti-Vβ (%)", "setting": "TCR Vβ5 (human)", "value": 3.2, "unit": "%"},
      {"measurement": "CD3^+ Lymphocytes Binding Anti-Vβ, fold difference versus unstimulated controls", "setting": "TCR Vβ5 (human)", "value": 1.4, "unit": "fold"},
      {"measurement": "CD3^+ Blasts Binding Anti-Vβ (%)", "setting": "TCR Vβ8 (human)", "value": 5.2, "unit": "%"},
      {"measurement": "CD3^+ Blasts Binding Anti-Vβ, fold difference versus unstimulated controls", "setting": "TCR Vβ8 (human)", "value": 1.3, "unit": "fold"},
      {"measurement": "CD3^+ Lymphocytes Binding Anti-Vβ (%)", "setting": "TCR Vβ8 (human)", "value": 4.2, "unit": "%"},
      {"measurement": "CD3^+ Lymphocytes Binding Anti-Vβ, fold difference versus unstimulated controls", "setting": "TCR Vβ8 (human)", "value": 1, "unit": "fold"}
    ]}
  ]
}
